{"source": "patent US20130096054A1", "about": "“LATENT HUMAN IMMUNODEFICIENCY VIRUS REACTIVIATION” (priority 2010, published 2013)", "test_system": "latently HIV-1 infected CA5 T cells", "experimental": "CA5 T cells were pretreated with increasing concentrations of dactinomycin (DM) (FIG. 11A), the DNA intercalator daunorubicin (DR) (FIG. 11B), or the transcription inhibitors DRB (FIG. 11 C) and α-amanitin (FIG. 11D) (concentrations indicated). The cells were then left unstimulated (white circles) or activated with a sub-optimal concentration of HRF (black circles). Reactivation levels were determined as the percentage of GFP-positive cells 24 hours after stimulation. Viability of the cells correlates with the size of the symbol (size range adjusted to 5-95%).\nInfection levels in the cell cultures were monitored by flow cytometric analysis of EGFP expression. Flow cytometric analysis was performed on a GUAVA EasyCyte (Millipore; Billerica, Mass.), or a LSRII (Becton & Dickinson; Franklin Lakes, N.J.).\nBacteria from various sources were isolated on TSA II agar plates containing 5% sheep blood. Bacterial isolates were then grown in RPMI 1640 medium supplemented with 10% FBS. After two days of incubation at 37° C. bacteria were pelleted and resuspended in RPMI medium to an optical density (OD600) of 8, aliquoted and frozen at −80° C. […] HRF activity was determined by its ability to reactivate latent HIV-1 infection in CA5 cells. […]\nInfection levels in the cell cultures were monitored by flow cytometric (FCM) analysis of GFP expression. […]", "note": "*1 amine or outer side, *2 acyl side, *3 side chain or, on linkers, in order; H or OH if unused. Where a SMILES comes first, the peptide text is derived from it. Bridges are numbered along the chain shown (N, C = ends). Roman numbers before positions name the chains, in order. [ ]: non-standard residue; d: D form. Actinocin(9to1) = Cc1c2oc3c(C)ccc(C(=O)[*:1])c3nc-2c(C(=O)[*:2])c(N)c1=O; NMeV = CN[C@H](C(=O)O)C(C)C; Sar = CNCC(=O)O"}
{"compound": "Cc1c2oc3c(C)ccc(C(=O)N[C@@H]4C(=O)N[C@H](C(C)C)C(=O)N5CCC[C@H]5C(=O)N(C)CC(=O)N(C)[C@@H](C(C)C)C(=O)O[C@@H]4C)c3nc-2c(C(=O)N[C@@H]2C(=O)N[C@H](C(C)C)C(=O)N3CCC[C@H]3C(=O)N(C)CC(=O)N(C)[C@@H](C(C)C)C(=O)O[C@@H]2C)c(N)c1=O", "note": "[dactinomycin] (I: T[dV]P[Sar][NMeV] / II: T[dV]P[Sar][NMeV]; ester I:1-I:C, II:1-II:C; linker I:N-II:N via Actinocin(9to1))", "values": [{"measurement": "optimal pretreatment time", "setting": "before activator addition", "result": 18, "unit": "h"}, {"measurement": "time of maximum reactivation effects after stimulation", "setting": "dactinomycin pretreatment", "result": 48, "unit": "h"}]}
